Results of unrelated studies side by side (data: NIAID ChemDB).

ECn is the concentration giving n% inhibition of infection, replication or growth. Conditions beyond the fields shown may differ between rows. CCn: concentration that lowers growth or viability of the cells by n%. ICn: concentration for n% inhibition. Blank or dashed fields: not listed here.

compound	kind	species	strain	cell line	protein	endpoint	value
Nc1nc2c(ncn2CCOCP(=O)(O)O)c(=O)[nH]1	toxicity	-	-	PHK	-	CC50	0.1 µg/mL
NC(=O)c1c[se]c([C@@H]2O[C@H](CO)[C@@H](O)[C@H]2O)n1	culture	Hantaan virus	HBL7990	VERO	-	EC50	1.6 µg/mL
CCN(CC)C(=O)C(NC(C)=O)[C@H]1C[C@@H](C(=O)O)C[C@@H]1N=C(N)N	target	Influenza A virus (H6N2)	-	-	Neuraminidase	IC50	3 µM
O=c1[nH]c(=O)n([C@@H]2O[C@H](CO)[C@@H](O)[C@@H]2F)cc1I	culture	Vaccinia virus	-	HFF	-	EC50	1.5 µM
O=C(O)COc1ccc2c(c1)c(C[C@H](NC(=O)c1ccc3c(c1)nc(-c1ccoc1)n3C1CCCCC1)C(=O)O)cn2CC(=O)O	target	Poliovirus	-	-	RNA-dependent RNA polymerase	IC50	>25 µM
O=c1cnn([C@@H]2O[C@H](CO)[C@@H](O)[C@H]2O)c(=O)[nH]1	culture	Camelpox virus	-	3T3	-	EC50	4.5 µM
Nc1ccn([C@H]2CC[C@@H](CO)O2)c(=O)n1	toxicity	-	-	VERO 76	-	CC50	>100 µM
Nc1ncnc2c1ncn2C[C@@H](CO)OCP(=O)(O)O	toxicity	-	-	PHK	-	CC50	16.4 µg/mL
Nc1ccn(C[C@@H](CO)OCP(=O)(O)O)c(=O)n1	culture	Vaccinia virus	WR	HFF	-	EC50	45.8 µM
Nc1ccn([C@@H]2O[C@H](CO)C[C@H]2O)c(=O)n1	toxicity	-	-	VERO 76	-	CC50	>100 µM
CCCN(CC)C(=O)C(NC(C)=O)[C@H]1CC(C(=O)O)C[C@@H]1N=C(N)N	target	Influenza A virus (H6N2)	-	-	Neuraminidase	IC50	0.13 µM
Nc1nc2c(ncn2[C@H]2CC[C@@H](CO)O2)c(=O)[nH]1	toxicity	-	-	VERO E6	-	CC50	>2 µM
Nc1nccc2c1ncn2C[C@H]1COP(=O)(O)CO1	toxicity	-	-	PHK	-	CC50	12.1 µg/mL
N#Cc1ccc(-c2nc3cc(C(=O)O)ccc3n2C2CCCCC2)cc1	target	Poliovirus	-	-	RNA-dependent RNA polymerase	IC50	>25 µM
CC1(C)[C@@H](O[C@H]2O[C@H](C(=O)O)[C@@H](O)[C@H](O)[C@H]2O[C@@H]2O[C@H](C(=O)O)[C@@H](O)[C@H](O)[C@H]2O)CC[C@]2(C)[C@H]3C(=O)C=C4[C@@H]5C[C@@](C)(C(=O)O)CC[C@]5(C)CC[C@@]4(C)[C@]3(C)CC[C@@H]12	culture	Japanese encephalitis virus	Nakayama	VERO	-	EC90	<156 µg/mL
CC(C)[C@H](NC(=O)OCc1ccccc1)C(=O)N[C@@H](Cc1ccccc1)C(=O)N[C@@H](C)C=O	toxicity	-	-	VERO 76	-	CC50	43 µM
O=C(N[C@@H](Cc1c[nH]c2ccc(O)cc12)c1ccccn1)c1ccc2c(c1)nc(-c1ccoc1)n2C1CCCCC1	target	Poliovirus	-	-	RNA-dependent RNA polymerase	IC50	>25 µM
Nc1nc2c(ncn2C[C@H](CO)OCP(=O)(O)O)c(=O)[nH]1	toxicity	-	-	PHK	-	CC50	34.4 µg/mL
O=C(N[C@@H](Cc1c[nH]c2ccc(O)cc12)C(=O)O)c1ccc2c(c1)nc(-c1ccoc1)n2C1CCCC[C@H]1CCc1ccccc1	target	Poliovirus	-	-	RNA-dependent RNA polymerase	IC50	>25 µM
Cc1cn([C@H]2C[C@H](N=[N+]=[N-])[C@@H](CO)O2)c(=O)[nH]c1=O	culture	Vaccinia virus	-	HFF	-	EC50	>374 µM
Nc1nccc2c1ncn2C[C@@H](CO)OCP(=O)(O)O	toxicity	-	-	PHK	-	CC50	7.3 µg/mL
CC(C)(Oc1ccc2[nH]cc(C[C@H](NC(=O)c3ccc4c(c3)nc(-c3ccoc3)n4C3CCCCC3)C(=O)O)c2c1)C(=O)O	target	Poliovirus	-	-	RNA-dependent RNA polymerase	IC50	>25 µM
Nc1ccn(C[C@@H](CO)OCP(=O)(O)O)c(=O)n1	culture	Camelpox virus	-	VERO 76	-	EC50	33 µM
CCCN(CC1CC1)C(=O)C(NC(C)=O)[C@H]1CC(C(=O)O)C[C@@H]1N=C(N)N	target	Influenza A virus (H6N2)	-	-	Neuraminidase	IC50	0.2 µM
O=C(N[C@H](CO)c1ccccc1)c1ccc2c(c1)nc(-c1ccoc1)n2C1CCCCC1	target	Poliovirus	-	-	RNA-dependent RNA polymerase	IC50	>25 µM
CCN(Cc1ccccc1)C(=O)C(NC(C)=O)[C@H]1CC(C(=O)O)C[C@@H]1N=C(N)N	target	Influenza A virus (H6N2)	-	-	Neuraminidase	IC50	0.67 µM
Nc1nc(=O)n([C@H]2C[C@H](O)[C@@H](CO)O2)cc1Br	toxicity	-	-	VERO 76	-	CC50	>100 µM
C=CCNc1nc(N)nc2c1ncn2CCOCP(=O)(O)O	toxicity	-	-	PHK	-	CC50	0.9 µg/mL
Nc1nc(=O)n([C@H]2O[C@@H](CO)[C@H](O)[C@@H]2O)cc1Cl	toxicity	-	-	VERO 76	-	CC50	>0.25 µM
O=C(N[C@@H](Cc1c[nH]c2ccc(NS(=O)(=O)C(F)(F)F)cc12)C(=O)O)c1ccc2c(c1)nc(-c1ccoc1)n2C1CCCCC1	target	Poliovirus	-	-	RNA-dependent RNA polymerase	IC50	>25 µM
Nc1ccnc(=O)[nH]1	toxicity	-	-	VERO 76	-	CC50	>100 µM
O=C(NCCc1ccc(O)cc1)c1ccc2c(c1)nc(-c1ccoc1)n2C1CCCCC1	target	Poliovirus	-	-	RNA-dependent RNA polymerase	IC50	>25 µM
CCCC(C)NC(=O)C(NC(C)=O)[C@H]1CC(C(=O)O)C[C@@H]1N=C(N)N	target	Influenza A virus (H6N2)	-	-	Neuraminidase	IC50	3.2 µM
O=C(N[C@H](C(=O)O)c1c[nH]c2ccc(O)cc12)c1ccc2c(c1)nc(-c1ccc(C(F)(F)F)cc1)n2C1CCCCC1	target	Poliovirus	-	-	RNA-dependent RNA polymerase	IC50	>25 µM
Cn1c(O)c(N=NC(N)=S)c2ccccc21	culture	Variola virus	-	BSC	-	EC50	258 µM
COC(=O)[C@H](Cc1ccc(C(N)=O)cc1)NC(=O)c1ccc2c(c1)nc(-c1ccoc1)n2C1CCCCC1	target	Poliovirus	-	-	RNA-dependent RNA polymerase	IC50	>25 µM
Nc1ccn(C[C@@H](CO)OCP(=O)(O)O)c(=O)n1	culture	Camelpox virus	-	BSC	-	EC50	28 µM
NC(=O)c1ncn([C@@H]2O[C@H](CO)[C@@H](O)[C@H]2O)n1	culture	Venezuelan equine encephalitis virus	Trinidad donkey	VERO 76	-	EC50	25 µg/mL
COC(=O)[C@H](Cc1cn(C)c2ccc(OC(C)(C)C(=O)O)cc12)NC(=O)c1ccc2c(c1)nc(-c1ccoc1)n2C1CCCCC1	target	Poliovirus	-	-	RNA-dependent RNA polymerase	IC50	>25 µM

The first 5 rows once more:

Nc1nc2c(ncn2CCOCP(=O)(O)O)c(=O)[nH]1 ; kind: toxicity ; cell line: PHK ; endpoint: CC50 ; value: 0.1 µg/mL
NC(=O)c1c[se]c([C@@H]2O[C@H](CO)[C@@H](O)[C@H]2O)n1 ; kind: culture ; species: Hantaan virus ; strain: HBL7990 ; cell line: VERO ; endpoint: EC50 ; value: 1.6 µg/mL
CCN(CC)C(=O)C(NC(C)=O)[C@H]1C[C@@H](C(=O)O)C[C@@H]1N=C(N)N ; kind: target ; species: Influenza A virus (H6N2) ; protein: Neuraminidase ; endpoint: IC50 ; value: 3 µM
O=c1[nH]c(=O)n([C@@H]2O[C@H](CO)[C@@H](O)[C@@H]2F)cc1I ; kind: culture ; species: Vaccinia virus ; cell line: HFF ; endpoint: EC50 ; value: 1.5 µM
O=C(O)COc1ccc2c(c1)c(C[C@H](NC(=O)c1ccc3c(c1)nc(-c1ccoc1)n3C1CCCCC1)C(=O)O)cn2CC(=O)O ; kind: target ; species: Poliovirus ; protein: RNA-dependent RNA polymerase ; endpoint: IC50 ; value: >25 µM